In paper PMC6669600 (Viruses, 2019):

tested on: HIV-1NL4-3 pseudovirus; format: cell-based; settings: HIV-1NL4-3(D36G) pseudovirus entry, TZM-bl cells; triplicate, repeated three times, mean ± SD; SD; read-out: Inhibition (IC50, nM) NL4-3 entry

Question: `CC[C@H](C)[C@H](NC(=O)[C@H](CC(C)C)NC(=O)[C@H](CCC(=O)O)NC(=O)[C@H](CCC(=O)O)NC(=O)[C@@H](NC(=O)[C@H](CCCCN)NC(=O)[C@H](CCCCN)NC(=O)[C@@H](NC(=O)[C@H](Cc1ccc(O)cc1)NC(=O)[C@H](CCC(=O)O)NC(=O)[C@H](CCC(=O)O)NC(=O)[C@@H](NC(=O)[C@H](CCCCN)NC(=O)[C@H](CCCCN)NC(=O)[C@H](CC(=O)O)NC(=O)[C@H](Cc1c[nH]c2ccccc12)NC(=O)[C@H](CCC(=O)O)NC(=O)[C@H](CCC(=O)O)NC(=O)[C@H](Cc1c[nH]c2ccccc12)NC(C)=O)[C@@H](C)CC)[C@@H](C)O)[C@@H](C)CC)C(=O)N[C@@H](CCCCN)C(=O)N[C@@H](CCCCN)C(=O)N[C@@H](CO)C(=O)N[C@@H](CCC(=O)O)C(=O)N[C@@H](CCC(=O)O)C(=O)N[C@@H](CCC(N)=O)C(=O)N[C@@H](CCC(N)=O)C(=O)N[C@@H](CCCCN)C(=O)N[C@@H](CCCCN)C(=O)N[C@@H](CC(N)=O)C(=O)N[C@@H](CCC(=O)O)C(=O)N[C@@H](CCCCN)C(N)=O` [SC31EK] was tested. Which IC50 did it give?
Answer: The IC50 was 1.3 ± 0.2 nM.

Question: How did the IC50 turn out when `CC[C@H](C)[C@H](NC(=O)[C@H](CC(C)C)NC(=O)[C@H](CCC(=O)O)NC(=O)[C@H](CCC(=O)O)NC(=O)[C@@H](NC(=O)[C@H](CCCCN)NC(=O)[C@H](CCCCN)NC(=O)[C@@H](NC(=O)[C@H](Cc1ccc(O)cc1)NC(=O)[C@H](CCC(=O)O)NC(=O)[C@H](CCC(=O)O)NC(=O)[C@@H](NC(=O)[C@H](CCCCN)NC(=O)[C@H](CCCCN)NC(=O)[C@H](CC(=O)O)NC(=O)[C@H](Cc1c[nH]c2ccccc12)NC(=O)[C@H](CCC(=O)O)NC(=O)[C@H](CCC(=O)O)NC(=O)[C@H](Cc1c[nH]c2ccccc12)NC(=O)[C@@H](NC(=O)[C@H](CCSC)NC(C)=O)[C@@H](C)O)[C@@H](C)CC)[C@@H](C)O)[C@@H](C)CC)C(=O)N[C@@H](CCCCN)C(=O)N[C@@H](CCCCN)C(=O)N[C@@H](CO)C(=O)N[C@@H](CCC(=O)O)C(=O)N[C@@H](CCC(=O)O)C(=O)N[C@@H](CCC(N)=O)C(N)=O` [MT-SC25EK] was run?
Answer: Its IC50 is 1.9 ± 0.2 nM.

Question: `CC[C@H](C)[C@H](NC(=O)[C@H](CC(C)C)NC(=O)[C@H](CCC(=O)O)NC(=O)[C@H](CCC(=O)O)NC(=O)[C@@H](NC(=O)[C@H](CCCCN)NC(=O)[C@H](CCCCN)NC(=O)[C@@H](NC(=O)[C@H](Cc1ccc(O)cc1)NC(=O)[C@H](CCC(=O)O)NC(=O)[C@H](CCC(=O)O)NC(=O)[C@@H](NC(=O)[C@H](CCCCN)NC(=O)[C@H](CCCCN)NC(=O)[C@H](CC(=O)O)NC(=O)[C@H](Cc1c[nH]c2ccccc12)NC(=O)[C@H](CCC(=O)O)NC(=O)[C@H](CCC(=O)O)NC(=O)[C@H](Cc1c[nH]c2ccccc12)NC(=O)[C@@H](NC(=O)[C@H](CCSC)NC(C)=O)[C@@H](C)O)[C@@H](C)CC)[C@@H](C)O)[C@@H](C)CC)C(=O)N[C@@H](CCCCN)C(=O)N[C@@H](CCCCN)C(=O)N[C@@H](CO)C(N)=O` [MT-SC22EK] was tested. Which IC50 did it give?
Answer: Its IC50 is 2.4 ± 0.3 nM.

Question: Which IC50 does the source give for `CC[C@H](C)[C@H](NC(=O)[C@H](CC(C)C)NC(=O)[C@H](CCC(=O)O)NC(=O)[C@H](CCC(=O)O)NC(=O)[C@@H](NC(=O)[C@H](CCCCN)NC(=O)[C@H](CCCCN)NC(=O)[C@@H](NC(=O)[C@H](Cc1ccc(O)cc1)NC(=O)[C@H](CCC(=O)O)NC(=O)[C@H](CCC(=O)O)NC(=O)[C@@H](NC(=O)[C@H](CCCCN)NC(=O)[C@H](CCCCN)NC(=O)[C@H](CC(=O)O)NC(=O)[C@H](Cc1c[nH]c2ccccc12)NC(=O)[C@H](CCC(=O)O)NC(=O)[C@H](CCC(=O)O)NC(=O)[C@H](Cc1c[nH]c2ccccc12)NC(=O)[C@@H](NC(=O)[C@H](CCSC)NC(C)=O)[C@@H](C)O)[C@@H](C)CC)[C@@H](C)O)[C@@H](C)CC)C(=O)N[C@@H](CCCCN)C(=O)N[C@@H](CCCCN)C(=O)N[C@@H](CO)C(=O)N[C@@H](CCC(=O)O)C(=O)N[C@@H](CCC(=O)O)C(=O)N[C@@H](CCC(N)=O)C(=O)N[C@@H](CCC(N)=O)C(=O)N[C@@H](CCCCN)C(=O)N[C@@H](CCCCN)C(=O)N[C@@H](CC(N)=O)C(=O)N[C@@H](CCC(=O)O)C(=O)N[C@@H](CCCCN)C(=O)N[C@@H](CCC(=O)O)C(=O)N[C@@H](CC(C)C)C(=O)N[C@@H](CCCCN)C(N)=O` [MT-SC34EK] here?
Answer: Its IC50 is 1 ± 0.2 nM.

Question: `CC[C@H](C)[C@H](NC(=O)[C@H](CCC(N)=O)NC(=O)[C@H](CCC(N)=O)NC(=O)[C@H](CC(N)=O)NC(=O)[C@H](CCC(N)=O)NC(=O)[C@H](CO)NC(=O)[C@H](CCCCN)NC(=O)[C@H](CCCCN)NC(=O)[C@@H](NC(=O)[C@H](CC(C)C)NC(=O)[C@H](CCC(=O)O)NC(=O)[C@H](CCC(=O)O)NC(=O)[C@@H](NC(=O)[C@H](CCCCN)NC(=O)[C@H](CCCCN)NC(=O)[C@@H](NC(=O)[C@H](Cc1ccc(O)cc1)NC(=O)[C@H](CCC(=O)O)NC(=O)[C@H](CCC(=O)O)NC(=O)[C@@H](NC(=O)[C@H](CCCCN)NC(=O)[C@H](CCCNC(=N)N)NC(=O)[C@H](CC(=O)O)NC(=O)[C@H](Cc1c[nH]c2ccccc12)NC(=O)[C@H](CCC(=O)O)NC(=O)[C@H](CCC(=O)O)NC(=O)[C@H](Cc1c[nH]c2ccccc12)NC(=O)[C@@H](NC(=O)[C@H](CCSC)NC(C)=O)[C@@H](C)O)[C@@H](C)CC)[C@@H](C)O)[C@@H](C)CC)[C@@H](C)CC)C(=O)N[C@@H](CC(=O)O)C(=O)N[C@@H](CC(C)C)C(N)=O` [MT-WQ-IDL, reference compound] was tested. Which IC50 did it give?
Answer: Its IC50 is 0.9 ± 0.1 nM.

Question: With `CC[C@H](C)[C@H](NC(=O)[C@H](CC(C)C)NC(=O)[C@H](CCC(=O)O)NC(=O)[C@H](CCC(=O)O)NC(=O)[C@@H](NC(=O)[C@H](CCCCN)NC(=O)[C@H](CCCCN)NC(=O)[C@@H](NC(=O)[C@H](Cc1ccc(O)cc1)NC(=O)[C@H](CCC(=O)O)NC(=O)[C@H](CCC(=O)O)NC(=O)[C@@H](NC(=O)[C@H](CCCCN)NC(=O)[C@H](CCCCN)NC(=O)[C@H](CC(=O)O)NC(=O)[C@H](Cc1c[nH]c2ccccc12)NC(=O)[C@H](CCC(=O)O)NC(=O)[C@H](CCC(=O)O)NC(=O)[C@H](Cc1c[nH]c2ccccc12)NC(C)=O)[C@@H](C)CC)[C@@H](C)O)[C@@H](C)CC)C(=O)N[C@@H](CCCCN)C(N)=O` [SC20EK] as the compound, how does the IC50 read?
Answer: Its IC50 is 127 ± 10.7 nM.

Question: For `CC[C@H](C)[C@H](NC(=O)[C@H](CC(C)C)NC(=O)[C@H](CCC(=O)O)NC(=O)[C@H](CCC(=O)O)NC(=O)[C@@H](NC(=O)[C@H](CCCCN)NC(=O)[C@H](CCCCN)NC(=O)[C@@H](NC(=O)[C@H](Cc1ccc(O)cc1)NC(=O)[C@H](CCC(=O)O)NC(=O)[C@H](CCC(=O)O)NC(=O)[C@@H](NC(=O)[C@H](CCCCN)NC(=O)[C@H](CCCCN)NC(=O)[C@H](CC(=O)O)NC(=O)[C@H](Cc1c[nH]c2ccccc12)NC(=O)[C@H](CCC(=O)O)NC(=O)[C@H](CCC(=O)O)NC(=O)[C@H](Cc1c[nH]c2ccccc12)NC(C)=O)[C@@H](C)CC)[C@@H](C)O)[C@@H](C)CC)C(=O)N[C@@H](CCCCN)C(=O)N[C@@H](CCCCN)C(=O)N[C@@H](CO)C(=O)N[C@@H](CCC(=O)O)C(=O)N[C@@H](CCC(=O)O)C(=O)N[C@@H](CCC(N)=O)C(=O)N[C@@H](CCC(N)=O)C(=O)N[C@@H](CCCCN)C(=O)N[C@@H](CCCCN)C(=O)N[C@@H](CC(N)=O)C(=O)N[C@@H](CCC(=O)O)C(N)=O` [SC30EK], which IC50 is on record?
Answer: The IC50 was 1 nM.

Question: How did the IC50 turn out when `CC[C@H](C)[C@H](NC(=O)[C@H](CC(C)C)NC(=O)[C@H](CCC(=O)O)NC(=O)[C@H](CCC(=O)O)NC(=O)[C@@H](NC(=O)[C@H](CCCCN)NC(=O)[C@H](CCCCN)NC(=O)[C@@H](NC(=O)[C@H](Cc1ccc(O)cc1)NC(=O)[C@H](CCC(=O)O)NC(=O)[C@H](CCC(=O)O)NC(=O)[C@@H](NC(=O)[C@H](CCCCN)NC(=O)[C@H](CCCCN)NC(=O)[C@H](CC(=O)O)NC(=O)[C@H](Cc1c[nH]c2ccccc12)NC(=O)[C@H](CCC(=O)O)NC(=O)[C@H](CCC(=O)O)NC(=O)[C@H](Cc1c[nH]c2ccccc12)NC(C)=O)[C@@H](C)CC)[C@@H](C)O)[C@@H](C)CC)C(=O)N[C@@H](CCCCN)C(=O)N[C@@H](CCCCN)C(=O)N[C@@H](CO)C(N)=O` [SC22EK] was run?
Answer: Its IC50 is 66.9 ± 15.9 nM.

Question: Which IC50 does the source give for `CC[C@H](C)[C@H](NC(=O)[C@H](CC(C)C)NC(=O)[C@H](CCC(=O)O)NC(=O)[C@H](CCC(=O)O)NC(=O)[C@@H](NC(=O)[C@H](CCCCN)NC(=O)[C@H](CCCCN)NC(=O)[C@@H](NC(=O)[C@H](Cc1ccc(O)cc1)NC(=O)[C@H](CCC(=O)O)NC(=O)[C@H](CCC(=O)O)NC(=O)[C@@H](NC(=O)[C@H](CCCCN)NC(=O)[C@H](CCCCN)NC(=O)[C@H](CC(=O)O)NC(=O)[C@H](Cc1c[nH]c2ccccc12)NC(=O)[C@H](CCC(=O)O)NC(=O)[C@H](CCC(=O)O)NC(=O)[C@H](Cc1c[nH]c2ccccc12)NC(=O)[C@@H](NC(=O)[C@H](CCSC)NC(C)=O)[C@@H](C)O)[C@@H](C)CC)[C@@H](C)O)[C@@H](C)CC)C(=O)N[C@@H](CCCCN)C(=O)N[C@@H](CCCCN)C(=O)N[C@@H](CO)C(=O)N[C@@H](CCC(=O)O)C(=O)N[C@@H](CCC(=O)O)C(N)=O` [MT-SC24EK] here?
Answer: Its IC50 is 2.8 ± 0.2 nM.

Question: With `CC[C@H](C)[C@H](NC(=O)[C@H](CC(C)C)NC(=O)[C@H](CCC(=O)O)NC(=O)[C@H](CCC(=O)O)NC(=O)[C@@H](NC(=O)[C@H](CCCCN)NC(=O)[C@H](CCCCN)NC(=O)[C@@H](NC(=O)[C@H](Cc1ccc(O)cc1)NC(=O)[C@H](CCC(=O)O)NC(=O)[C@H](CCC(=O)O)NC(=O)[C@@H](NC(=O)[C@H](CCCCN)NC(=O)[C@H](CCCCN)NC(=O)[C@H](CC(=O)O)NC(=O)[C@H](Cc1c[nH]c2ccccc12)NC(=O)[C@H](CCC(=O)O)NC(=O)[C@H](CCC(=O)O)NC(=O)[C@H](Cc1c[nH]c2ccccc12)NC(C)=O)[C@@H](C)CC)[C@@H](C)O)[C@@H](C)CC)C(=O)N[C@@H](CCCCN)C(=O)N[C@@H](CCCCN)C(=O)N[C@@H](CO)C(=O)N[C@@H](CCC(=O)O)C(=O)N[C@@H](CCC(=O)O)C(=O)N[C@@H](CCC(N)=O)C(=O)N[C@@H](CCC(N)=O)C(N)=O` [SC26EK] as the compound, how does the IC50 read?
Answer: Its IC50 is 44.9 ± 5.2 nM.

same assay, conditions: HIV-1NL4-3(D36G) pseudovirus entry, TZM-bl cells; triplicate, repeated three times, mean ± SD; read-out: Inhibition (IC50, nM) NL4-3 entry

Question: Which IC50 does the source give for `CC[C@H](C)[C@H](NC(=O)[C@H](CCCCN)NC(=O)[C@H](CCCCN)NC(=O)[C@H](CC(=O)O)NC(=O)[C@H](Cc1c[nH]c2ccccc12)NC(=O)[C@H](CCC(=O)O)NC(=O)[C@H](CCC(=O)O)NC(=O)[C@H](Cc1c[nH]c2ccccc12)NC(C)=O)C(=O)N[C@@H](CCC(=O)O)C(=O)N[C@@H](CCC(=O)O)C(=O)N[C@@H](Cc1ccc(O)cc1)C(=O)N[C@H](C(=O)N[C@@H](CCCCN)C(=O)N[C@@H](CCCCN)C(=O)N[C@H](C(=O)N[C@@H](CCC(=O)O)C(=O)N[C@@H](CCC(=O)O)C(=O)N[C@@H](CC(C)C)C(N)=O)[C@@H](C)CC)[C@@H](C)O` [SC18EK] here?
Answer: The IC50 was greater than 2000 nM.
